# Laboratory results reported in US5629198A (priority 1991, dated 1997).
# Legend:
# MOLT-4/ARV = assay: Killing effect on cells persistently infected with HIV (Test Example 1), trypan blue; assay type: cell-based, human; settings: 3 days
# Description: (§1) The cell killing effects of test substances were determined using a cell strain persistently infected with HIV in MOLT-4 cells and MOLT-4 cells.
# (§2) MOLT4/HTLV-IIIB, MOLT4/ARV and MOLT4 cell strains were separately inoculated in proportions of 4×10^4 cells/well (200 μl) on a 96-well plate, and the above test substances in various concentrations were separately added in an amount of 20 μl thereto. After each cell sample was cultured for 3 days at 37° C. in the presence of 5% CO2, the culture was diluted to a triple or quadruple amount, thereby counting the number of living cells by a trypan blue dye exclusion test. As a control, 20 μl of PBS were added in place of each test substance. Each numerical value is expressed in terms of the percentage of living cells to the control.
# MOLT-4/HTLV-IIIB = assay: as above; assay type: cell-based, human; settings: 3 days
# Description: as §1, §2
# male ICR mice [1] = assay: One-administration toxicity test, intravenous (Test Example 9); assay type: in vivo
# Description: A specimen was dissolved at a protein concentration of 100 mg/ml in a physiological saline (pH 7.0), and the solution was sterilely filtered through a membrane filter of 0.22 μm. The filtrate was intravenously administered to male ICR mice (Charles River Japan, Inc.) aged 5 weeks and 5 days through their tail veins. Doses of 690, 830, 1,000, 1,200 and 1,440 mg/kg were used in each group consisting of 5 mice. Defining the day of the administration as 0 day, their weights were measured on the second, fourth, seventh, tenth and fifteenth days. As a control, a group consisting of 5 mice given with no specimen was used.
# (§3) In each of the toxicity tests, organ autopsy was conducted to all the mice on the fifteenth day after the administration.
# male ICR mice [2] = assay: One-administration toxicity test, intraperitoneal (Test Example 9); assay type: in vivo; settings: single, 21600 min
# Description: A specimen was dissolved at a protein concentration of 100 mg/ml in a physiological saline (pH 7.0), and the solution was sterilely filtered through a membrane filter of 0.22 μm. The filtrate was intraperitoneally administered to male ICR mice (Charles River Japan, Inc.) aged 5 weeks and 5 days. Defining the day of the administration as 0 day, their weights were measured on the second, fourth, seventh, tenth and fifteenth days.
# as §3
# [3] = system: HTLV-IIIB in human peripheral blood lymphocytes (PBL); assay: P24 production in HIV-infected PBL (Test Example 6); assay type: cell-based, HIV (HTLV-IIIB); settings: sixth day, 8640 min
# Description: (§4) The anti-HIV effects of test substances on human peripheral blood lymphocytes infected with HIV were determined.
# (§5) After blood is collected from a vein by a syringe whose interior wall is wetted with heparin, PBL is separated from the blood with Ficol. After this PBL cell is inoculated on a 25-cm^2 culture flask containing 10 ml of a RPMI 1640 medium (including IL-2) added with 20% of a fetal bovine serum so as to contain 7×10^5 cells/ml therein, 40 μl (1 mg/ml) of PHA are added to culture the cells for 4 days. After 4 days, the cells are washed. Thereafter, they are used in assaying the anti-HIV effects of the test substances as PBL cells in an HIV-uninfected system for part of them, and in an HIV-infected system for the remainder. The PBL cells are inoculated on a 25-cm^2 culture flask added with 5 ml of the above medium so as to contain 2×10^6 cells therein. Then, 500 μl of S-HSA-Hemin or S-HSA-EDC-Hemin are given in various concentrations thereto so as to conduct culture at 37° C. in the presence of 5% CO2, thereby assaying the cytotoxic effects of the test substances in the various concentrations. With respect to the infected system on the other hand, 8 ml of HTLV-IIIB (10^7 TCID50 /ml) obtained from a culture supernatant of an HIV-persistently infected strain, MOLT-4/HTLV-IIIB are inserted in the PBL cells to culture them for 2 hours. Thereafter, the cells are washed, and then inoculated on a 25-cm^2 culture flask added with 5 ml of the above medium so as to contain 2×10^6 cells therein. In the same manner as described above, S-HSA-Hemin or S-HSA-EDC-Hemin is given in the various concentrations thereto, thereby conducting culture at 37° C. in the presence of 5% CO2. After 3, 6 and 9 days from the beginning of the culture, the number of cells are counted to calculate the quantity of the P24 protein produced and TCID50.
# mice = assay: One-administration toxicity test, oral (Test Example 9); assay type: in vivo; settings: single, 21600 min
# Description: A specimen was suspended in distilled water for injection to give a concentration of 50 mg/ml to orally administer (2,000 mg/kg) to 5 groups each consisting of 5 mice by a probe. Defining the day of the administration as 0 day, their weights were measured on the second, fourth, seventh, tenth and fifteenth days.
# as §3
# [4] = system: human peripheral blood lymphocytes (PBL), nonactivated; assay: Cytotoxic effect on nonactivated PBL (Test Example 2); assay type: cell-based; settings: 4 days
# [5] = system: human peripheral blood lymphocytes (PBL), uninfected system; assay: Cytotoxic effect on uninfected PBL (Test Example 6); assay type: cell-based; settings: sixth day, 8640 min
# Description: as §4, §5
substance,measurement,setting,value
S--HSA--EDC-Hemin: complex of succinylated human serum albumin and EDC-Hemin,living cells (percentage to the control),MOLT-4/ARV; 37.9 μg/ml,72%
same,living cells (percentage to the control),MOLT-4/ARV; 151.6 μg/ml,0%
same,living cells (percentage to the control),MOLT-4/HTLV-IIIB; 37.9 μg/ml,69%
same,living cells (percentage to the control),MOLT-4/HTLV-IIIB; 113.7 μg/ml,0%
same,living cells (percentage to the control),MOLT-4/HTLV-IIIB; 151.6 μg/ml,0%
same,Morality (number of mice died/number of mice used),"male ICR mice [1]; intravenous, 690 mg/kg",0/5
same,Morality (number of mice died/number of mice used),"male ICR mice [1]; intravenous, 830 mg/kg",0/5
same,Morality (number of mice died/number of mice used),"male ICR mice [1]; intravenous, 1,000 mg/kg",0/5
same,Morality (number of mice died/number of mice used),"male ICR mice [1]; intravenous, 1,200 mg/kg",0/5
same,Morality (number of mice died/number of mice used),"male ICR mice [1]; intravenous, 1,440 mg/kg",1/5
same,dose showing no toxicity,"male ICR mice [1]; intravenous, single, 21600 min","≤ 1,200 mg/kg"
same,changes in weight,"male ICR mice [1]; single administration, doses of no toxicity (iv, ip, oral)",No abnormality
same,dose showing no toxicity,male ICR mice [2],≤ 400 mg/kg
same,P24 production in infected system,[3]; 15.2 μg/ml,2.8%
same,P24 production in infected system,[3]; 30.3 μg/ml,2.8%
same,P24 production in infected system,[3]; 60.6 μg/ml,1.1%
same,P24 production in infected system,[3]; 91.0 μg/ml,2.8%
same,dose showing no toxicity,mice,"≤ 2,000 mg/kg"
same,living cells (control 100%),[4]; 37.9 μg/ml,98%
same,living cells (control 100%),[4]; 75.8 μg/ml,70%
same,living cells (control 100%),[4]; 151.6 μg/ml,70%
same,living cells (control 100%),[4]; 606.4 μg/ml,22%
same,Living cells in uninfected system,[5]; 15.2 μg/ml,115%
same,Living cells in uninfected system,[5]; 30.3 μg/ml,83%
same,Living cells in uninfected system,[5]; 60.6 μg/ml,63%
same,Living cells in uninfected system,[5]; 91.0 μg/ml,57%
